This experiment concerns HIV-1 variant K101E. In words: Cytopathic cell killing assay, cross-resistance profile, infected MT-4 cells. It is filed as cell-based. The note with it: Table 10 (values in µM); isolate K101E; listed as NH2. From the text: In these Tables, antiviral data are reported as the quantity of drug in µM required to reduce cell killing or virus production by 50% (EC50). The various HIV isolates tested in the Figures are those corresponding to wild-type virus (NL4-3) and the other strains listed by their RT mutations. The three 4xAZT isolates included in the Figures represent AZT drug-resistant variants. For example, the 4xAZT/L100I isolate has five mutations: four mutations confer increased resistance to AZT, and the other mutation is located within the NNRTI binding pocket. TZB and nevir. (nevirapine) are two well-known NNRTIs, included in this experiment for comparison purposes. […]
In this Example, the antiviral and cellular toxicity of NNRTIs was investigated, using the cytopathic cell killing assay described by Yang (Yang et al., "Characteristics of a Group of Non-nucleoside Reverse Transcriptase Inhibitors with Structural Diversity and Potent Anti-Human Immunodeficiency Virus Activity," Leukemia 9:S75-S85 [1995]). […] The cells were then infected with HIV virus (either mutant or WT), at a multiplicity of infection (MOI) previously determined to provide complete cell killing by 6 days of culture post-infection (e.g., MOI of 0.01-0.05). […]

The source holds more than one record for some entries. They are shown here; other results are not. There may be further records. Results that share an entry differ for a reason that is not stated; some may be repeats, others may stem from another dose, organism or construct than stated.

In general, EC50 refers to the concentration at which the effect is half-maximal. Higher therefore signals lower potency in that assay. `Nc1cccc2c1nc(-c1c(F)cccc1F)n2Cc1c(F)cccc1F`: the concentration giving a half-maximal response (EC50) was > 50 µM and > 20 µM.

Source of the values: patent publication EP1210336B1, “SUBSTITUTED BENZIMIDAZOLES AS NON-NUCLEOSIDE INHIBITORS OF REVERSE TRANSCRIPTASE” (THE UNITED STATES OF AMERICA, as represented by the …, priority 1999, dated 2001).
